Measured values from several laboratories, pooled; numbers as filed in NIAID ChemDB.

Common to all: growth or infection tests; species: Aspergillus clavatus

Zones are inhibition diameters on agar. An empty or dashed field is not shown. A number after MIC or MFC names an inhibition level or a share of isolates. Lines come from different laboratories, so protocols vary.

structure,tested at,read by,read-out,strain or isolate,value
O=C1CSC(N2N=C(c3ccccc3[N+](=O)[O-])CC2c2cc3ccccc3nc2Cl)=N1,-,-,MIC100,MTCC 1323,100 µg/mL
COC1=CC(=O)C[C@@H](C)[C@]12Oc1c(Cl)c(OC)cc(OC)c1C2=O,-,-,MIC100,MTCC 1323,1000 µg/mL
O=C1CSC(N2N=C(c3ccccc3F)CC2c2cc3ccccc3nc2Cl)=N1,-,-,MIC100,MTCC 1323,100 µg/mL
N#Cc1ccc(Nc2nc(Oc3cccc4cccnc34)nc(N3CCOCC3)n2)cc1C(F)(F)F,100 µg/disc,agar diffusion / agar,zone,MTCC 1323,23 mm
Cc1ccc(N2NOC(=O)C2S(=O)(=O)Nc2ccc(-n3c(-c4ccccc4Cl)nc4ccccc4c3=O)cc2)cc1,250 µg/mL,agar diffusion,zone,MTCC323,20 mm
CC(=O)Nc1ccc(OCC(=O)N2N=C(c3nc4ccccc4[nH]3)CC2c2ccccc2Br)cc1,-,-,MIC100,MTCC 1323,50 µg/mL
N#Cc1ccc(Nc2nc(Oc3ccnc4ccccc34)nc(N3CCN(c4ccccc4)CC3)n2)cc1C(F)(F)F,100 µg/mL,agar,zone,MTCC 1323,<10 mm
COc1ccc(C2c3c(nc(=O)[nH]c3N)Oc3c2c(C)nn3-c2ccccc2)cc1,-,-,MIC,MTCC 1323,250 µg/mL
COc1ccc(C2=NN(C3=NC(=O)CS3)C(c3cc4ccccc4nc3Cl)C2)cc1,-,-,MIC100,MTCC 1323,1000 µg/mL
Cc1nc(NC(=O)c2ccc(F)cc2)sc1C(=O)N/N=C1/S/C(=C/c2ccccc2Cl)C(=O)N1c1ccccc1,-,-,MIC50,MTCC 1323,250 µg/mL
Cc1ccc(-c2nc3ccccc3c(=O)n2-c2ccc(C(=O)N/N=C\c3ccc(F)cc3)cc2)cc1,-,-,MIC100,MTCC 1323,250 µg/mL
Cc1nn(-c2ccccc2)c2c1C(c1cccc(Br)c1)C(C#N)=C(N)O2,-,-,MIC,MTCC 1323,250 µg/mL
O=C1CSC(N2N=C(c3ccccc3)CC2c2cc3ccccc3nc2Cl)=N1,-,-,MIC100,MTCC 1323,1000 µg/mL
COc1ccc(-c2nc3ccccc3c(=O)n2-c2ccc(NS(=O)(=O)C3C(=O)ONN3c3ccc(C)cc3)cc2)cc1,250 µg/mL,agar diffusion,zone,MTCC323,23 mm
O=C1CSC(N2N=C(c3ccc(O)cc3)CC2c2cc3ccccc3nc2Cl)=N1,-,-,MIC100,MTCC 1323,500 µg/mL
Cc1nc(NC(=O)c2ccc(F)cc2)sc1C(=O)N/N=C1/S/C(=C/c2ccc([N+](=O)[O-])cc2)C(=O)N1c1ccccc1,-,-,MIC50,MTCC 1323,250 µg/mL
CC(=O)Nc1ccc(OCC(=O)N2N=C(c3nc4ccccc4[nH]3)CC2c2ccc(F)cc2)cc1,-,-,MIC100,MTCC 1323,25 µg/mL
Cc1nc(NC(=O)c2ccc(F)cc2)sc1C(=O)N/N=C1/S/C(=C/c2ccccc2)C(=O)N1c1ccccc1,-,-,MIC50,MTCC 1323,250 µg/mL
Cc1ccc(-c2nc3ccccc3c(=O)n2-c2ccc(C(=O)NN3C(=O)/C(=C/c4ccc(F)cc4)SC3c3ccc(F)cc3)cc2)cc1,-,-,MIC100,MTCC 1323,100 µg/mL
Cc1nn(-c2ccccc2)c2c1C(c1cccc(Cl)c1)c1c(nc(=S)[nH]c1N)O2,-,-,MIC,MTCC 1323,1000 µg/mL
CC(=O)Nc1ccc(OCC(=O)N2N=C(c3nc4ccccc4[nH]3)CC2c2ccccc2[N+](=O)[O-])cc1,-,-,MIC100,MTCC 1323,50 µg/mL
N#Cc1ccc(Nc2nc(Oc3cccc4cccnc34)nc(N3CCN(c4ncccn4)CC3)n2)cc1C(F)(F)F,100 µg/disc,agar diffusion / agar,zone,MTCC 1323,24 mm
CC(=O)Nc1ccc(OCC(=O)N2N=C(c3nc4ccccc4[nH]3)CC2c2cccc([N+](=O)[O-])c2)cc1,-,-,MIC100,MTCC 1323,250 µg/mL
Cc1ccc(-c2nc3ccccc3c(=O)n2-c2ccc(C(=O)NN3C(=O)/C(=C/c4ccccc4O)SC3c3ccc(F)cc3)cc2)cc1,-,-,MIC100,MTCC 1323,1000 µg/mL
CC(=O)Nc1ccc(OCC(=O)N2N=C(c3nc4ccccc4[nH]3)CC2c2cccc(Cl)c2)cc1,-,-,MIC100,MTCC 1323,100 µg/mL
CC1=C(Cl)C(O)=CC(=O)C12Oc1cc(O)c(Cl)c(C)c1C2=O,-,-,MIC50,MTCC 1323,100 µg/mL
N#Cc1ccc(Nc2nc(Oc3cccc4cccnc34)nc(N3CCN(c4cccc(Cl)c4)CC3)n2)cc1C(F)(F)F,100 µg/disc,agar diffusion / agar,zone,MTCC 1323,24 mm
Cc1ccc(-c2nc3ccccc3c(=O)n2-c2ccc(C(=O)NN3C(=O)/C(=C/c4cccc(Br)c4)SC3c3ccc(F)cc3)cc2)cc1,-,-,MIC100,MTCC 1323,1000 µg/mL
O=C1CSC(N2N=C(c3ccc(F)cc3)CC2c2cc3ccccc3nc2Cl)=N1,-,-,MIC100,MTCC 1323,500 µg/mL
COc1ccc(/C=C2\SC(c3ccc(F)cc3)N(NC(=O)c3ccc(-n4c(-c5ccc(C)cc5)nc5ccccc5c4=O)cc3)C2=O)cc1,-,-,MIC100,MTCC 1323,1000 µg/mL
Cc1ccc(N2NOC(=O)C2S(=O)(=O)Nc2nc3ccc(Br)cc3s2)cc1,250 µg/mL,agar diffusion,zone,MTCC323,24 mm
Cc1nc(NC(=O)c2ccc(F)cc2)sc1C(=O)N/N=C1/S/C(=C/c2ccc(O)cc2)C(=O)N1c1ccccc1,-,-,MIC50,MTCC 1323,250 µg/mL
COc1ccc(-c2nc3ccccc3c(=O)n2-c2ccc(NS(=O)(=O)C3C(=O)ONN3c3ccc(C)cc3)cc2)cc1[N+](=O)[O-],250 µg/mL,agar diffusion,zone,MTCC323,22 mm
Cc1nn(-c2ccccc2)c2c1C(c1cccc(Br)c1)c1c(nc(=O)[nH]c1N)O2,-,-,MIC,MTCC 1323,1000 µg/mL
COC1=CC(=O)C[C@@H](C)[C@]12Oc1c(Cl)c(OC)cc(OC)c1C2=O,250 µg/mL,agar diffusion,zone,MTCC323,24 mm
CC(=O)Nc1ccc(OCC(=O)N2N=C(c3nc4ccccc4[nH]3)CC2c2ccc([N+](=O)[O-])cc2)cc1,-,-,MIC100,MTCC 1323,25 µg/mL
Cc1nc(NC(=O)c2ccc(F)cc2)sc1C(=O)N/N=C1/S/C(=C/c2ccccc2[N+](=O)[O-])C(=O)N1c1ccccc1,-,-,MIC50,MTCC 1323,1000 µg/mL
CC(C)N1CCN(c2nc(Nc3ccc(C#N)c(C(F)(F)F)c3)nc(Oc3cccc4cccnc34)n2)CC1,100 µg/disc,agar diffusion / agar,zone,MTCC 1323,21 mm
CC(=O)Nc1ccc(OCC(=O)N2N=C(c3nc4ccccc4[nH]3)CC2c2cccc(C)c2)cc1,-,-,MIC100,MTCC 1323,500 µg/mL
Cc1ccc(-c2csc(NS(=O)(=O)C3C(=O)ONN3c3ccc(C)cc3)n2)cc1,250 µg/mL,agar diffusion,zone,MTCC323,17 mm

Repeating the first 5 entries:

O=C1CSC(N2N=C(c3ccccc3[N+](=O)[O-])CC2c2cc3ccccc3nc2Cl)=N1 ; read-out: MIC100 ; strain or isolate: MTCC 1323 ; value: 100 µg/mL
COC1=CC(=O)C[C@@H](C)[C@]12Oc1c(Cl)c(OC)cc(OC)c1C2=O ; read-out: MIC100 ; strain or isolate: MTCC 1323 ; value: 1000 µg/mL
O=C1CSC(N2N=C(c3ccccc3F)CC2c2cc3ccccc3nc2Cl)=N1 ; read-out: MIC100 ; strain or isolate: MTCC 1323 ; value: 100 µg/mL
N#Cc1ccc(Nc2nc(Oc3cccc4cccnc34)nc(N3CCOCC3)n2)cc1C(F)(F)F ; tested at: 100 µg/disc ; read by: agar diffusion / agar ; read-out: zone ; strain or isolate: MTCC 1323 ; value: 23 mm
Cc1ccc(N2NOC(=O)C2S(=O)(=O)Nc2ccc(-n3c(-c4ccccc4Cl)nc4ccccc4c3=O)cc2)cc1 ; tested at: 250 µg/mL ; read by: agar diffusion ; read-out: zone ; strain or isolate: MTCC323 ; value: 20 mm